Results reported in the supplement of paper PMC9931576.
Human monoclonal antibodies against the spike receptor-binding domain (heavy:light variable regions). IC50 against pseudoviruses bearing the spike of naturally observed variants; lower = stronger; >10 µg/ml means not reached at the top dose. No active / inactive call. The stated detection limit is 0.0005 µg/ml; values near or below 0.001 µg/ml lie at the floor of the assay.

B1: BD56-1585 (protein)
chain 1: EVQLVESGGGLAQPGGSLRLSCEASGIIVRRNYMHWVRQAPGKGLEWVSVMYPGGSTFYADSVKGRFTISRDNSKNTLYLRMNSLRAEDTAVYYCARDQGEDTFDIWGQGTMVTVSS
chain 2: DIQLTQSPSFLSASVGNRVTITCRASQDIGTYLAWYQQKPGKAPKLLIYAASTLQTGVPSRFSGSGSGTEFTLTVSSLQPEDFATYYCQQLNSSPPLFGGGTKVEIK
B2: BD56-1626 (protein)
chain 1: QVQLVESGGGVVQPGRSLRLSCAASGFTFSHYGMHWVRQAAGKGLEWVAVILYDGSETYYADSVKGRFTISRDNSKNTLYLQMNRLRPEDTAVYYCAKVSGPYCGGGNCYSGYFDYWGQGSLVTVSS
chain 2: DIQMTQSPSTLSASVGDRVTITCRASQSVSTWLAWYQQKPGKAPKVLIYEASNLESGVPSRFSGSGSGTEFTLTISSLQPDDFATYYCQQYDTYSNTFGQGTKLEIK
B3: LY-CoV481 (protein)
chain 1: EVQLVESGGGLIQPGGSLRLSCAASGFTVSSNYMSWVRQAPGKGLEWVSVIYPGGSTFYADSVKGRFTISRDNSKNTLYLQMNSLRAEDTAVYYCAREVAGTYDYWGQGTLVTVSS
chain 2: DIQMTQSPSSVSASVGDRVTITCRASQGISSWLAWYQQKPGKAPKLLIYAASSLQSGVPSRFSGSGSGTDFTLTISSLQPEDFATYYCQQANSFPGGTFGPGTKVDIK
B4: BD56-1624 (protein)
chain 1: EVQLVESGGGLVQPGGSLRLSCVASGFTFSTYDMHWVRQAPGKGLEWVSAIGTAGDTYYPGSVKGRFTISRENAKNSLYLQMNSLRAGDTAVYYCARGVFDTAMVRGWFDPWGQGTLVTVSS
chain 2: DIQMTQSPSSLSASVGTRVTITCRASQTISNYLNWYQQKPGKAPKLLIYTASSLQSGVPSRFSGSGSGTDFTLTISSLQPEDFATYYCQQSYSIPPWTFGQGTKLEIK
B5: BD56-1598 (protein)
chain 1: QVQLQESGPGLVKPGQTLSLTCTVSGGSISSASNYWSWIRQPAGKGLEWIGRIYTSGSANYKPSLKGRLTISLDTSRNQFSLKLNSVTASDTAVYYCACGGDFRYFDLWGRGTLVTVSS
chain 2: NFMLTQPHSVSESPGKTVTISCTRSSGSIAGNFVQWYQHRPGSAPITLIYEDDLRSSGVPDRFSGSIDSSSNSASLTISGLKAEDEAEYSCQSYHSGNVVFGGGTKLTVL
B6: BD56-1632 (protein)
chain 1: QVQLRESGPGLVKPSQTLSLMCTVSGGSIVSGTYFWNWIRQPAGKGLEWIGRIYTSGSTDYNPSLRSRVTISVDTSKNQFSLRLSSVTAADTAVYYCAREDSSGWYTGDTLDLWGQGTMVTVSS
chain 2: DIQMTQSPLSLSASVGDRVTITCRASQSISRYLNWFQQIPGKAPKLLIYAANSLQGAVPSRFSGDGSGTDFTLTISSLQPEDFATYFCQQSYSPPWTFGQGTKVEIK
B7: BD56-1631 (protein)
chain 1: QVQLVESGGGVVQPGKSLRLSCTDSGFNFSNSAFHWVRQAPGKGLEWVAVISSHGTDTYYADSVEGRFTISRDQSRNTLYLQMSSLRTEDTAVYYCARGLKVPGVIGEAYYYYGMDVWGQGTTVAVSS
chain 2: DIQMTQSPSSVSASVGDRVTITCRASQGISSWLAWYQQKPGKAPKLLIYDASLLQSGVPSRFSGSGSGTDFTLTISSVQPEDFATYSCQQTLIFPWTFGQGTKVEIK

These binders were tested against SARS-CoV-2 Omicron BA.1 spike pseudovirus (assay: pseudovirus neutralization IC50; higher = weaker neutralization).
Protocol: (§1)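 Single-round VSV luciferase pseudovirus mixed with antibody dilutions for 1 h and put on Huh-7 cells for about a day; IC50 from the dose curve.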
With B1 the “pseudovirus neutralization IC50” value was 0.00712 µg/mL.
B2 was tested, and the “pseudovirus neutralization IC50” value was > 10 µg/mL.
For B3, the “pseudovirus neutralization IC50” value was > 10 µg/mL.
B4 was tested, and the “pseudovirus neutralization IC50” value was > 10 µg/mL.
B5 was tested, and the “pseudovirus neutralization IC50” value was 0.0846 µg/mL.
For B6, the “pseudovirus neutralization IC50” value was > 10 µg/mL.
For B7, the “pseudovirus neutralization IC50” value was 0.000908 µg/mL.

Each binder was assayed against SARS-CoV-2 Omicron BA.2 spike pseudovirus in the same assay as above.
Protocol: as §1
For B1, the “pseudovirus neutralization IC50” value was 0.00504 µg/mL.
In the case of B2, the “pseudovirus neutralization IC50” value is reported as > 10 µg/mL.
B3 was tested, and the “pseudovirus neutralization IC50” value was > 10 µg/mL.
B4 was tested, and the “pseudovirus neutralization IC50” value was > 10 µg/mL.
B5 was tested, and the “pseudovirus neutralization IC50” value was 0.11 µg/mL.
With B6 the “pseudovirus neutralization IC50” value was > 10 µg/mL.
B7 was tested, and the “pseudovirus neutralization IC50” value was 0.000548 µg/mL.

What follows are binders tested against SARS-CoV-2 Omicron BA.2.75 spike pseudovirus in the same assay as above.
Protocol: as §1
In the case of B1, the “pseudovirus neutralization IC50” value is reported as > 10 µg/mL.
B2 was tested, and the “pseudovirus neutralization IC50” value was > 10 µg/mL.
B3 was tested, and the “pseudovirus neutralization IC50” value was > 10 µg/mL.
For B4, the “pseudovirus neutralization IC50” value was > 10 µg/mL.
In the case of B5, the “pseudovirus neutralization IC50” value is reported as 0.0334 µg/mL.
For B6, the “pseudovirus neutralization IC50” value was > 10 µg/mL.
In the case of B7, the “pseudovirus neutralization IC50” value is reported as 0.00121 µg/mL.

The binders below were run against SARS-CoV-2 Omicron BA.5 spike pseudovirus in the same assay as above.
Protocol: as §1
With B1 the “pseudovirus neutralization IC50” value was 0.0563 µg/mL.
B2 was tested, and the “pseudovirus neutralization IC50” value was > 10 µg/mL.
B3 was tested, and the “pseudovirus neutralization IC50” value was > 10 µg/mL.
B4 was tested, and the “pseudovirus neutralization IC50” value was > 10 µg/mL.
In the case of B5, the “pseudovirus neutralization IC50” value is reported as 0.774 µg/mL.
B6 was tested, and the “pseudovirus neutralization IC50” value was > 10 µg/mL.
B7 was tested, and the “pseudovirus neutralization IC50” value was > 10 µg/mL.

What follows are binders tested against SARS-CoV-2 Omicron BQ.1.1 spike pseudovirus in the same assay as above.
Protocol: as §1
B1 was tested, and the “pseudovirus neutralization IC50” value was > 10 µg/mL.
For B2, the “pseudovirus neutralization IC50” value was > 10 µg/mL.
B3 was tested, and the “pseudovirus neutralization IC50” value was > 10 µg/mL.
With B4 the “pseudovirus neutralization IC50” value was > 10 µg/mL.
With B5 the “pseudovirus neutralization IC50” value was > 10 µg/mL.
With B6 the “pseudovirus neutralization IC50” value was > 10 µg/mL.
In the case of B7, the “pseudovirus neutralization IC50” value is reported as > 10 µg/mL.

Each binder was assayed against SARS-CoV-2 Omicron XBB spike pseudovirus in the same assay as above.
Protocol: as §1
B1 was tested, and the “pseudovirus neutralization IC50” value was > 10 µg/mL.
B2 was tested, and the “pseudovirus neutralization IC50” value was > 10 µg/mL.
For B3, the “pseudovirus neutralization IC50” value was > 10 µg/mL.
For B4, the “pseudovirus neutralization IC50” value was > 10 µg/mL.
B5 was tested, and the “pseudovirus neutralization IC50” value was > 10 µg/mL.
B6 was tested, and the “pseudovirus neutralization IC50” value was > 10 µg/mL.
For B7, the “pseudovirus neutralization IC50” value was > 10 µg/mL.

Each binder was assayed against SARS-CoV-2 early D614G spike pseudovirus in the same assay as above.
Protocol: as §1
In the case of B1, the “pseudovirus neutralization IC50” value is reported as 0.0426 µg/mL.
In the case of B2, the “pseudovirus neutralization IC50” value is reported as 2.11 µg/mL.
B3 was tested, and the “pseudovirus neutralization IC50” value was 0.0536 µg/mL.
With B4 the “pseudovirus neutralization IC50” value was > 10 µg/mL.
With B5 the “pseudovirus neutralization IC50” value was 0.0661 µg/mL.
In the case of B6, the “pseudovirus neutralization IC50” value is reported as 2.4 µg/mL.
With B7 the “pseudovirus neutralization IC50” value was 0.00252 µg/mL.
